Measured values from several laboratories, pooled; numbers as filed in NIAID ChemDB.

Shared fields: tests in culture; species: Rhinovirus; measure: EC50

Rows are shuffled and stem from different studies. ECn is the concentration giving n% inhibition of infection, replication or growth. An empty or dashed field is not shown.

SMILES,strain,cells,read by,value
Cc1ccc(CON2CNc3c(ncn3[C@@H]3O[C@H](CO)[C@@H](O)[C@H]3O)C2=N)cc1,Type 1A/strain 2060,KB,cytopathic effect,100 µg/mL
CC1=NN(c2c(Cl)cc(Cl)cc2Cl)C(=O)C1,Serotype 13,WI-38,cytopathic effect,2.5 µM
CC(C)CC(NC(=O)Oc1ccccc1)C(=O)Nc1cccc(Cn2cnc3c(N(C)C)ncnc32)c1,Serotype 1B,M-HELA,plaque count,>50 µM
NS(=O)c1ncnc2c1ncn2[C@@H]1O[C@H](CO)[C@@H](O)[C@@H]1O,TYPE 1A,-,cytopathic effect,>320 µM
CCCOc1ccccc1CNC(=O)c1ccc2cnccc2n1,-,-,plaque count,<0.01 µg/mL
CNC(=O)/C=C(\c1ccccc1)c1ccc2nc(N)c(-c3cc(F)ccc3F)n2c1,TYPE 14,H-HELA,cytopathic effect,0.16 µg/mL
Cn1c2ccccc2c2nnc(NCCCCCCO)nc21,1059,WI-38,plaque count,20 µg/mL
Nc1ncnc2c1ncn2Cc1ccc(NC(=O)C(N)Cc2ccccc2)cc1,Serotype 1B,M-HELA,plaque count,>50 µM
CCOC(=O)/C=C/[C@H](C[C@@H]1CCNC1=O)NC(=O)[C@H](Cc1ccc(F)cc1)NC(=O)[C@@H](NC(=O)c1cc(C)on1)C(C)(C)C,Serotype 14,H1-HELA,XTT,0.004 µM
CC(C)CC(N)C(=O)Nc1ccc(Cn2cnc3c(N)ncnc32)cc1,Serotype 1B,M-HELA,plaque count,>50 µM
CN(C)c1nnc2c3ccccc3n(C)c2n1,1059,WI-38,plaque count,100 µg/mL
CSc1nsc(-c2ccc(OCCc3ccccc3)cc2)c1C#N,Serotype 63 (group B),HELA-OHIO,cytopathic effect,>20 µM
CS(=O)(=O)c1ccc(Oc2ccc(C(=O)c3ccccc3)cc2)nc1,TYPE 29,HeLa,cytopathic effect,>5 µg/mL
OCCCNc1nnc2c3ccccc3n(CCc3ccccc3)c2n1,HGP,WI-38,plaque count,45 µg/mL
CNC(=O)/C=C(\c1ccccc1)c1ccc2nc(N)c(-c3ccc(F)cc3C(F)(F)F)n2c1,TYPE 14,H-HELA,cytopathic effect,0.48 µg/mL
Cn1c2ccccc2c2nnc(N3CCOCC3)nc21,HGP,WI-38,plaque count,220 µg/mL
CC(=O)N[C@H]1C[C@@H](n2cnc3c(N)ncnc32)[C@H](O)[C@@H]1O,TYPE 2,HFF,-,>100 µg/mL
CCCCCCS(=O)(=O)c1ccc(Oc2ccc(C(=O)c3ccccc3)cc2)nc1,TYPE 2,HeLa,cytopathic effect,>10 µg/mL
Cc1cc(CCCOc2c(C)cc(-c3nnn(C)n3)cc2C)on1,Serotype 3,-,plaque count,0.576 µg/mL
O=C(O)c1ccc(-c2oc3ccccc3c(=O)c2O)cc1,TYPE 1B,OHIO HELA,plaque count,12.1 µM
CSc1nsc(-c2ccc(O)cc2)c1C#N,Serotype 70 (group A),HELA-OHIO,cytopathic effect,>10 µM
CCOC(=O)c1ccc(C2CC(=O)c3ccccc3O2)cc1,TYPE 1B,OHIO HELA,plaque count,>25 µM
Cc1cc(CCCOc2c(Cl)cc(C3=NCCO3)cc2Cl)on1,Serotype 3,-,plaque count,>6.2 µg/mL
NCC(=O)Nc1cccc(Cn2cnc3c(N)ncnc32)c1,Serotype 1B,M-HELA,plaque count,>50 µM
Cc1c(-c2ccccc2)n(-c2ccc(F)cc2)c2ccc(C(C)C)cc2c1=O,Clinical isolate,HELA-OHIO,cytopathic effect,0.03 µg/mL
O=C1CC(c2ccc(C3=NCCO3)cc2)Oc2ccccc21,TYPE 1B,OHIO HELA,plaque count,>25 µM
CCO/N=C/c1cccc(OCCC2CCN(c3ccc(Cl)nn3)CC2)c1,TYPE 2,MRC-5,cytopathic effect / visual reading,<0.001 µg/mL
CCOC(=O)c1ccc(OCCC2CCN(c3ccc(C)nn3)CC2)cc1,Serotype 3,WI-38,cytopathic effect,<0.1 µg/mL
N=C1c2ncn([C@H]3C[C@H](O)[C@@H](CO)O3)c2NCN1OCc1cccc(F)c1,Type 1A/strain 2060,KB,cytopathic effect,320 µg/mL
CCOC(=O)/C=C/[C@H](C[C@@H]1CCNC1=O)NC(=O)Nc1cc(OC)cc(OC)c1,Serotype 14,H1-HELA,-,>10 µM
CC(C)S(=O)(=O)c1ccc(Oc2ccc(C(=O)c3ccccc3)cc2)nc1,TYPE 1A,HeLa,cytopathic effect,>5 µg/mL
CCO/N=C/c1ccc(OCCC2CCN(c3ccc(OCC(F)(F)F)nn3)CC2)cc1,TYPE 1A,KB,cytopathic effect / visual reading,>1 µg/mL
CN(C)c1ncnc2c1ncn2Cc1ccccc1NC(=O)CN,Serotype 1B,M-HELA,plaque count,>50 µM
CCc1ccc(Cn2cnc3c(N(C)C)nc(Cl)nc32)cc1,Serotype 18,M-HELA,plaque count,>4 µM
CCOC(=O)c1ccc(OCCCCOc2ccc(-c3snc(SC)c3C#N)cc2)cc1,Serotype 51 (group B),HELA-OHIO,cytopathic effect,>2 µM
N=c1c2ncn([C@@H]3O[C@H](CO)[C@@H](O)[C@H]3O)c2ncn1O,Type 1A/strain 2060,KB,cytopathic effect,3.2 µg/mL
CC(C)CC(N)C(=O)Nc1ccc(Cn2cnc3c(N(C)C)ncnc32)cc1,Serotype 1B,M-HELA,plaque count,>50 µM
CCOC(=O)c1ccc(OCCC2CCN(c3ccc(C)nn3)CC2)cc1,SF-1662 (ICAM-1 receptor group 92),KB,neutral red,0.003 µM
C[C@@]1(O)[C@H](O)[C@@H](COP(=O)(O)OP(=O)(O)OP(=O)(O)O)O[C@H]1n1ccc2c(N)ncnc21,TYPE 14,HELA OHIO-1,neutral red,6 µM
CCO/N=C/c1ccc(OCCC2CCN(c3ccc(-c4ccc([N+](C)=O)nn4)nn3)CC2)cc1,TYPE 1A,KB,cytopathic effect / visual reading,<0.0032 µg/mL
Cn1c2ccccc2c2nnc(NCCCO)nc21,33342,WI-38,plaque count,13 µg/mL
CCOC(=O)c1ccc(OCCC2CCN(c3ccc(C)nn3)CC2)cc1,Serotype 70 (group A),HELA-OHIO,cytopathic effect,0.005 µM
CS(=O)(=O)c1ccc(Oc2ccc(Cl)c(Cl)c2)nc1,89,-,cytopathic effect,4.1 µM
CN(C)c1nc(Cl)nc2c1ncn2Cc1ccc(Cl)cc1,Serotype 21,M-HELA,plaque count,>5 µM
CSc1nsc(-c2ccc(OS(=O)(=O)c3ccc(C)cc3)cc2)c1C#N,Serotype 29 (group B),HELA-OHIO,cytopathic effect,1 µM
Cc1c(-c2ccccc2)n(-c2cccc(F)c2)c2ccc(C(C)C)cc2c1=O,TYPE 89/41617-GALLO,HELA-OHIO,cytopathic effect,0.034 µg/mL
NS(=O)(=O)c1ncnc2c1ncn2[C@@H]1O[C@H](CO)[C@@H](O)[C@@H]1O,TYPE 1A,-,cytopathic effect,>320 µM
CSc1nsc(-c2ccc(OCCOc3ccc(C#N)cc3)cc2)c1C#N,Serotype 42 (group A),HELA-OHIO,cytopathic effect,>2 µM
NSc1ncnc2c1ncn2[C@@H]1O[C@H](CO)[C@@H](O)[C@@H]1O,TYPE 1A,-,cytopathic effect,>320 µM
Nc1ncnc2c1ncn2Cc1cccc(NC(=O)C(Cc2ccccc2)NC(=O)OCc2ccccc2)c1,Serotype 1B,M-HELA,plaque count,>50 µM
N=C1c2ncn([C@@H]3O[C@H](CO)[C@@H](O)[C@H]3O)c2NCN1OCc1ccccc1,Type 1A/strain 2060,KB,cytopathic effect,320 µg/mL
CCOC(=O)c1ccc(OCCCCCCc2cc(C)no2)cc1,TYPE 2,HELA-OHIO,plaque count,0.01 µg/mL
CSc1nsc(-c2ccc(OCc3ccccc3)cc2)c1C#N,Serotype 39 (group B),HELA-OHIO,cytopathic effect,3 µM
CN(C)c1ncnc2c1ncn2Cc1ccccc1NC(=O)C(Cc1ccccc1)NC(=O)OCc1ccccc1,Serotype 1B,M-HELA,plaque count,>50 µM
Cc1ccccc1CO[n+]1cnc2c(ncn2[C@@H]2O[C@H](CO)[C@@H](O)[C@H]2O)c1N.F[B-](F)(F)F,Type 1A/strain 2060,KB,cytopathic effect,320 µg/mL
CC(=O)OCCCNc1nnc2c3ccccc3n(C)c2n1,HGP,WI-38,plaque count,220 µg/mL
CSc1nsc(-c2ccc(OCCCCOc3ccc([N+](=O)[O-])cc3)cc2)c1C#N,Serotype 86 (group A),HELA-OHIO,cytopathic effect,>0.5 µM
CNC(=O)/C=C(\c1ccccc1)c1ccc2nc(N)c(-c3ccc(F)c(F)c3F)n2c1,TYPE 14,H-HELA,cytopathic effect,0.21 µg/mL
Cc1ccc(Cn2cnc3c(N(C)C)nc(C(F)(F)F)nc32)cc1,TYPE 21,M-HELA,plaque count,>8 µM
CCOC(=O)/C=C/[C@H](CCC(N)=O)NC(=O)NC(CC(C)C)C(=O)OCC,Serotype 14,H1-HELA,XTT,19.6 µM

The first 8 rows once more:

SMILES,strain,cells,read by,value
Cc1ccc(CON2CNc3c(ncn3[C@@H]3O[C@H](CO)[C@@H](O)[C@H]3O)C2=N)cc1,Type 1A/strain 2060,KB,cytopathic effect,100 µg/mL
CC1=NN(c2c(Cl)cc(Cl)cc2Cl)C(=O)C1,Serotype 13,WI-38,cytopathic effect,2.5 µM
CC(C)CC(NC(=O)Oc1ccccc1)C(=O)Nc1cccc(Cn2cnc3c(N(C)C)ncnc32)c1,Serotype 1B,M-HELA,plaque count,>50 µM
NS(=O)c1ncnc2c1ncn2[C@@H]1O[C@H](CO)[C@@H](O)[C@@H]1O,TYPE 1A,-,cytopathic effect,>320 µM
CCCOc1ccccc1CNC(=O)c1ccc2cnccc2n1,-,-,plaque count,<0.01 µg/mL
CNC(=O)/C=C(\c1ccccc1)c1ccc2nc(N)c(-c3cc(F)ccc3F)n2c1,TYPE 14,H-HELA,cytopathic effect,0.16 µg/mL
Cn1c2ccccc2c2nnc(NCCCCCCO)nc21,1059,WI-38,plaque count,20 µg/mL
Nc1ncnc2c1ncn2Cc1ccc(NC(=O)C(N)Cc2ccccc2)cc1,Serotype 1B,M-HELA,plaque count,>50 µM